Assay results reported in patent publication US9018248B2, “Fatty acid derivatives of catechins and methods of their use” (Genesis Group Inc., priority 2010, dated 2015).

Test: Bulk oil system, stripped corn oil, Rancimat
Settings: Rancimat 100° C., 1 μmol compound in 3 g stripped corn oil
Method: One milliliter of EGCG and its derivatives dissolved in ethanol (1 μmol/ml) was transferred into a reaction vessel, followed by evaporation of the solvent to dryness under a stream of nitrogen. To each vessel (an empty vessel was used as control) 3 g of stripped corn oil (devoid of endogenous antioxidants) were added. The evaluation was carried out under accelerated oxidation in a Rancimat (Metrohm Model 743, Herisau, Switzerland) conditions at 100° C. with an air flow rate of 20 l/h. Lipid oxidation in the absence and presence of test compounds was monitored by changes in electrical conductivity, arising from the formation of volatile oxidation products. The induction periods (IP, time to reach a sudden increase in oxidation rate) were recorded. […] Antioxidant activity was interpreted as protection factor (PF), which was calculated as follow. PF=IPsample/IPcontrol where, IPsample and IPcontrol represent induction periods for the oil with and without test compounds, respectively. Discussion

Point of comparison: `CCC=CCC=CCC=CCC=CCC=CCCCC(=O)Oc1cc(C(=O)OC2Cc3c(O)cc(O)cc3OC2c2cc(OC(=O)CCCC=CCC=CCC=CCC=CCC=CCC)c(O)c(OC(=O)CCCC=CCC=CCC=CCC=CCC=CCC)c2)cc(OC(=O)CCCC=CCC=CCC=CCC=CCC=CCC)c1O` (stereo not shown) [Compound 1b], “Induction Time” value 2.33 h. Against it:
- O=C(O[C@@H]1Cc2c(O)cc(O)cc2O[C@@H]1c1cc(O)c(O)c(O)c1)c1cc(O)c(O)c(O)c1 [EGCG, Epigallocatechin gallate, reference compound] — 1.7-fold higher, 3.97 h
- CCCCCCCCCCCCCCCCCC(=O)Oc1cc(C(=O)OC2Cc3c(O)cc(O)cc3OC2c2cc(OC(=O)CCCCCCCCCCCCCCCCC)c(O)c(OC(=O)CCCCCCCCCCCCCCCCC)c2)cc(OC(=O)CCCCCCCCCCCCCCCCC)c1O (stereo not shown) [Compound 1a, EGCG stearate] — 2.9-fold higher, 6.75 h
- CCC=CCC=CCC=CCC=CCC=CCC=CCCC(=O)Oc1cc(C(=O)OC2Cc3c(O)cc(O)cc3OC2c2cc(OC(=O)CCC=CCC=CCC=CCC=CCC=CCC=CCC)c(O)c(OC(=O)CCC=CCC=CCC=CCC=CCC=CCC=CCC)c2)cc(OC(=O)CCC=CCC=CCC=CCC=CCC=CCC=CCC)c1O (stereo not shown) [Compound 1c] — within 1.5-fold, 2.19 h
